Assay results taken from patent US6380194B1 (Janssen Pharmaceutica N.V., priority 1996, dated 2002).

Tested on: HIV-1
Experiment: Inhibition of HIV-induced cytopathic effect in MT-4 cells (MTT)
Format: cell-based
Details: selectivity index, ratio of CC50 to IC50
Method: A rapid, sensitive and automated assay procedure was used for the in vitro evaluation of anti-HIV agents. An […] T4-cell line, MT-4, which was previously shown (Koyanagi et al., Int. J. Cancer, 36, 445-451, 1985) to be highly susceptible to and permissive for HIV infection, served as the target cell line. Inhibition of the HIV-induced cytopathic effect was used as the end point. The viability of both HIV- and mock-infected cells was assessed spectrophotometrically via the in situ reduction of 3-(4,5-dimethylthiazol-2-yl)-2,5-diphenyltetrazolium bromide (MTT). The 50% cytotoxic concentration (CC50 in μM) was defined as the concentration of compound that reduced the absorbance of the mock-infected control sample by 50%. The percent protection achieved by the compound in HIV-infected cells was calculated by the following formula: [formula]
whereby (ODT)HIV is the optical density measured with a given concentration of the test compound in HIV-infected cells; (ODC)HIV is the optical density measured for the control untreated HIV-infected cells; (ODC)MOCK is the optical density measured for the control untreated mock-infected cells; all optical density values were determined at 540 nm. The dose achieving 50% protection according to the above formula was defined as the 50% inhibitory concentration (IC50 in μM). The ratio of CC50 to IC50 was defined as the selectivity index (SI).

## N#Cc1ccc(Nc2nc(Cc3c(Cl)cccc3Cl)nc(NCC(O)CO)n2)cc1 (racemic) [Compound 26, (±)-4-[[4-[(2,6-dichlorophenyl)methyl]-6-[(2,3-dihydroxypropyl)amino]-1,3,5-triazin-2-yl]amino]benzonitrile]
  SI: 883

## N#Cc1ccc(Nc2nc(Cc3c(Cl)cccc3Cl)nc(NC(CCO)C(N)=O)n2)cc1 (racemic) [Compound 34, (±)-2-[[4-[(4-cyanophenyl)amino]-6-[(2,6-dichlorophenyl)amino]-6-[(2,6-dichlorophenyl)methyl]-1,3,5-triazin-2-yl]amino-4-hydroxybutanamide]
  SI: 746

## CCO.Cl.N#Cc1ccc(Nc2nc(N)nc(C(CC3CC3)c3c(Cl)cccc3Cl)n2)cc1 (racemic) [Compound 61]
  SI: 7

## CC(=N)Nc1nc(Cc2c(Cl)cccc2Cl)nc(Nc2ccc(C#N)cc2)n1 [Compound 28]
  SI: >37037

## COC(=O)CN(c1ccc(C#N)cc1)c1nc(N)nc(Cc2c(Cl)cccc2Cl)n1 [Compound 39]
  SI: >256

## COc1cccc(Cc2nc(N)nc(Nc3ccc(C#N)cc3)n2)c1 [Compound 47]
  SI: >243

## CCOc1cccc(Cc2nc(N)nc(Nc3ccc(C#N)cc3)n2)c1 [Compound 48]
  SI: >269
